Data on 1 sequence can be found in patent publication US11147746B2, “Hydrophobic dental surfaces” (priority 2016, dated 2021).

Series [1] is described as follows: Diametral-compression fracture resistance of restored dentin discs. The arrangement: species or system bovine.
Series [2] in a line: Interface impermeability of restored dentin discs (silver nitrate, micro-CT), before and after aging. The arrangement: species or system bovine.

No end group written: not given here.

On to GKIIKLKASLKLL [GL13K], for which the “bond strength of the dentin-restoration interface” value in series [1] (GL13K layer at dentin surface versus non-coated) is recorded as “did not lower the bond strength”. The “reduction of mechanical strength on removal of the bonding agent” value in series [1] (specimens with hydrophobic (GL13K-coated) dentin) was “not statistically significant”. Besides, the “silver nitrate penetration after aging” value in series [2] (2-month water storage plus 2,500 thermal cycles, versus control samples) was “reduction was also significant”. In series [2] (GL13K-coated dentin restored using bonding agent), the “increase in silver nitrate volume penetration after aging” value is “no significant increase”.
